Source: PubChem BioAssay AID686977 (Southern Research Specialized Biocontainment Screening …, 2013)
The list shows a part of the results. Measured potencies and affinities stand elsewhere. Records with an inconclusive call do not appear. The source made the active and inactive calls. How the calls were made is not given here.

Experiment: Vibrio cholerae quorum sensing activators, luminescence (AID 686977)
Settings: V. cholerae quorum sensing reporter, 6 h, dose 50, dose unit µM, active compounds read high
For O=C(NCC1(N2CCOCC2)CCCCC1)c1cc2ccccc2o1, the luminescence was inactive: 0.
